Literature values, collected in US7456274B2, “Inhibition of metallo-β-lactamase” (priority 2003, dated 2008).

Test system: class B β-lactamases
Details: Felici and Amicosante, 1995, Matagne et al.; cited from earlier work

## penicillanic acid sulfone
  inhibition of class B β-lactamases: do not inhibit

## 6-β-iodopenicillanic acid
  inhibition of class B β-lactamases: do not inhibit
